The other results are listed elsewhere or left out. Results filed as inconclusive are left out. The source made the active and inactive calls.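 How the source made its calls: active means inhibition above a set limit at one or more doses, reproduced on every date tested; inconclusive means results disagree between test dates, or hit never tested in dose response; inactive means the rest.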
These compounds were tested against Virion infectivity factor (Human immunodeficiency virus type 1 group M subtype B (isolate BH10)) + Virion infectivity factor (Human immunodeficiency virus type 1 group M subtype B (isolate BRU/LAI)) + Virion infectivity factor (Human immunodeficiency virus type 1 group M subtype B (isolate PCV12)) + Virion infectivity factor (Human immunodeficiency virus type 1 group M subtype B (isolate HXB2)) + DNA dC->dU-editing enzyme APOBEC-3G (Homo sapiens) (UniProt P69720+P69721+P69722+P69723+Q9HC16) (assay: inhibitors of Vif binding to APOBEC3G peptide, primary screen, biochemical, TR-FRET, GST-Vif 1-94, biotin-A3G peptide, dose response retest (AID 1117319;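 further: Vif residues 1-94 fused to GST binding biotinylated APOBEC3G peptide 110-148; 0% = full assay without inhibitor and 100% = GST in place of GST-Vif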)). Settings: active compounds read high.

Row | Compound | inhibition
1 | CCOC(=O)c1ccc(NP(C)(=O)Oc2ccc(Cl)cc2)cc1 (configuration not stated) | inactive: 5.19%
2 | CP(=O)(OC12CC3CC(CC(C3)C1)C2)OC12CC3CC(CC(C3)C1)C2 | inactive: 2.02%
3 | CN(C)C(=O)c1c([N+](=O)[O-])cc([N+](=O)[O-])cc1[N+](=O)[O-] | inactive: -3.9%
4 | COc1ccccc1OP(C)(=O)Nc1ccccc1Br (configuration not stated) | inactive: -1.96%
5 | CC(C)(C)c1ccc(OP(C)(=O)O)cc1 | inactive: 4.68%
6 | CP(=O)(Nc1ccc(Cl)cc1)Oc1ccc(F)cc1 (configuration not stated) | inactive: -5.26%
7 | O=C(OCCCN1CCCC1)C(O)(c1ccccc1)C1CCCCC1 (configuration not stated) | inactive: 30.7%
8 | COc1ccccc1OP(C)(=O)Nc1c(C)n(C)n(-c2ccccc2)c1=O (configuration not stated) | inactive: -4.6%
9 | CCc1ccc(OP(C)(=O)Nc2cccnc2)cc1 (configuration not stated) | inactive: -5.33%
10 | CP(=O)(Oc1ccccc1)N1CCOC1=O (configuration not stated) | inactive: 3.88%
11 | COc1ccc(OP(C)(=O)Nc2ccc(Br)cc2)cc1 (configuration not stated) | inactive: -3.15%
12 | COc1ccccc1OP(C)(=O)Nc1ccc(C)cc1C (configuration not stated) | inactive: 15.7%
13 | CP(=O)(Nc1ccccn1)Oc1ccccc1 (configuration not stated) | inactive: -0.31%
14 | CCc1ccc(OP(C)(=O)O)cc1 | inactive: 6.64%
15 | Cc1c(NP(C)(=O)Oc2ccc(C(C)C)cc2)c(=O)n(-c2ccccc2)n1C (configuration not stated) | inactive: 1.91%
16 | O=[N+]([O-])c1cc([N+](=O)[O-])c(Nc2ccccn2)c([N+](=O)[O-])c1 | inactive: -6.23%
17 | COc1ccc(OP(C)(=O)Nc2ccccn2)cc1 (configuration not stated) | inactive: -6.23%
18 | CN(C)CCOC(=O)C(O)(c1ccccc1)C1CCCC1 (configuration not stated) | inactive: 6.43%
19 | COc1ccccc1OP(C)(=O)Nc1ccc(Br)cc1 (configuration not stated) | inactive: -6.5%
20 | CCCCCCCCCCCCCCCC1C[N+](C)(C)CCOP(C)(=O)O1 (configuration not stated) | inactive: 3.91%
21 | CP(=O)(Nc1ccc(Cl)cc1Cl)Oc1ccccc1 (configuration not stated) | inactive: 5.36%
22 | CP(=O)(OCCOc1ccccc1)OCCOc1ccccc1 | inactive: -1.09%
23 | Cc1nc2ccc3ccccc3c2o1.O=[N+]([O-])c1cc([N+](=O)[O-])c(O)c([N+](=O)[O-])c1 | inactive: 14%
24 | COc1ccccc1OP(C)(=O)Nc1ccc(C)c(C)c1 (configuration not stated) | inactive: 6.36%

Row | Compound | inhibition
25 | Cc1cc(C)cc(OP(C)(=O)Nc2cccc(C(F)(F)F)c2)c1 (configuration not stated) | inactive: 6.2%
26 | O=C1C(O)=C([N+](=O)[O-])C(=O)C(O)=C1[N+](=O)[O-] | inactive: -0.02%
27 | CP(=O)(Nc1ccccc1)Oc1ccc(F)cc1 (configuration not stated) | inactive: 12.8%
28 | Cc1c([N+](=O)[O-])cc([N+](=O)[O-])c(Br)c1[N+](=O)[O-] | inactive: 6.03%
29 | CCN(CC)CCCOC(=O)C(O)(c1ccccc1)C1CCCCC1 (configuration not stated) | inactive: 2.98%
30 | CCOC(=O)c1ccc(NP(C)(=O)Oc2ccc(F)cc2)cc1 (configuration not stated) | inactive: 0.71%
31 | O=C(OC1CN2CCC1CC2)c1ccc([N+](=O)[O-])cc1 (configuration not stated) | inactive: 4.46%
32 | O=C(OCCN1CCN(CCOCc2ccccc2)CC1)C(O)(c1ccccc1)c1ccccc1 | inactive: 2.65%
33 | CP(=O)(Nc1ccccc1F)Oc1ccccc1 (configuration not stated) | inactive: -1.28%
34 | CC(C)c1ccc(OP(C)(=O)Nc2ccc(SC(F)(F)F)cc2)cc1 (configuration not stated) | inactive: -1.4%
35 | O=[N+]([O-])c1cc([N+](=O)[O-])c(Nc2ccc(Cl)cc2)c([N+](=O)[O-])c1 | inactive: 3.11%
36 | Cc1ccccc1NP(C)(=O)Nc1ccccc1C | inactive: 4.12%
37 | CCOP(C)(=S)SCC(=O)NC(C)(CC)C(=O)O (configuration not stated) | inactive: -2.27%
38 | CP(=O)(Nc1ccc(SC(F)(F)F)cc1)Oc1ccc(F)cc1 (configuration not stated) | inactive: -1.94%
39 | O=[N+]([O-])c1ccc(OP2(=O)COCCO2)cc1 (configuration not stated) | inactive: -14.3%
40 | O=[N+]([O-])c1cc([N+](=O)[O-])c(NCC2CCS(=O)(=O)C2)c([N+](=O)[O-])c1 (configuration not stated) | inactive: 3.25%
41 | CN(C)CCOC(=O)C(O)(c1ccccc1)C1CCCCC1 (configuration not stated) | inactive: -3.22%
42 | COc1ccc(NP(C)(=O)Oc2ccccc2OC)cc1 (configuration not stated) | inactive: 5.72%
43 | COc1ccc(OP(C)(=O)Nc2cccc(Br)c2)cc1 (configuration not stated) | inactive: 28%
44 | CP(=O)(Nc1ccc(SC(F)(F)F)cc1)Oc1ccccc1 (configuration not stated) | inactive: 16.4%
45 | CN1CCCCC1COC(=O)C1(O)c2ccccc2CCc2ccccc21 (configuration not stated) | inactive: -2.02%
46 | COc1ccccc1OP(C)(=O)Nc1c(C)cccc1C (configuration not stated) | inactive: -0.17%
47 | CCOC(=O)C(CC)C1=NC(C)(C)Cc2ccccc21.O=[N+]([O-])c1cc([N+](=O)[O-])c(O)c([N+](=O)[O-])c1 (configuration not stated) | inactive: -2.69%
48 | Cc1nc2ccc3ccccc3c2s1.O=[N+]([O-])c1cc([N+](=O)[O-])c(O)c([N+](=O)[O-])c1 | inactive: -0.25%

Row | Compound | inhibition
49 | O=[N+]([O-])c1cc([N+](=O)[O-])c(-n2nnc3ccccc32)c([N+](=O)[O-])c1 | inactive: 23%
50 | Cc1ccc(C)c(NP(C)(=O)Oc2ccccc2)c1 (configuration not stated) | inactive: 1.56%
51 | Cc1cc(C)cc(OP(C)(=O)Nc2ccccn2)c1 (configuration not stated) | inactive: -3.16%
52 | CP(=O)(Nc1cccc(Br)c1)Oc1ccccc1 (configuration not stated) | inactive: -8.56%
53 | Cc1cc(C)cc(OP(C)(=O)Nc2ccc(C)cc2C)c1 (configuration not stated) | inactive: 4.08%
54 | COc1ccccc1OP(C)(=O)Nc1cccc(Br)c1 (configuration not stated) | inactive: -0.82%
55 | CC1=NCCc2c1[nH]c1ccccc21.O=[N+]([O-])c1cc([N+](=O)[O-])c(O)c([N+](=O)[O-])c1 | inactive: 9.98%
56 | Cc1cc(C)cc(OP(C)(N)=O)c1 (configuration not stated) | inactive: 10.8%
57 | COc1ccc(OP(C)(=O)Nc2cccc(F)c2)cc1 (configuration not stated) | inactive: -2.97%
58 | COc1ccccc1OP(C)(=O)Nc1cc(Cl)ccc1C (configuration not stated) | inactive: 5.1%
59 | Cc1ccc(NP(C)(=O)Oc2ccccc2)c(C)c1 (configuration not stated) | inactive: 0.68%
60 | CCOC(=O)c1ccc(NP(C)(=O)Oc2ccccc2)cc1 (configuration not stated) | inactive: -8.7%
61 | O=[N+]([O-])c1ccc2c(c1)C=Nc1ccccc1O2 | inactive: -2.17%
62 | Cc1cccc(C)c1OP(C)(N)=O (configuration not stated) | inactive: -0.34%
63 | CC(C)(C)c1ccc(OP(C)(=O)Nc2ccc(SC(F)(F)F)cc2)cc1 (configuration not stated) | inactive: -3.17%
64 | CCN(CC)CCCOC(=O)C(O)(c1ccccc1)c1ccccc1 | inactive: 8.64%
65 | CP(=O)(Nc1ccccn1)Oc1ccc(Cl)cc1 (configuration not stated) | inactive: 4.4%
66 | CCOP(C)(=S)SCC(=O)NC(C)C(=O)O (configuration not stated) | inactive: 3.47%
67 | CP(=O)(NC(=O)Nc1ccccc1)Oc1ccccc1 (configuration not stated) | inactive: 4.86%
68 | CP(=O)(Oc1ccccc1)OC(c1ccccc1)C(F)(F)F (configuration not stated) | inactive: -1.89%
69 | CP(=O)(Nc1ccc(SC(F)(F)F)cc1)Oc1ccc(Cl)cc1 (configuration not stated) | inactive: 12%
70 | Cc1ccc(Nc2c([N+](=O)[O-])cc([N+](=O)[O-])cc2[N+](=O)[O-])cc1 | inactive: -4.75%
71 | COc1ccccc1OP(C)(=O)Nc1ccccc1 (configuration not stated) | inactive: 2.64%
72 | CP(=S)(Nn1cnnc1)Oc1ccccc1 (configuration not stated) | inactive: 1.21%

Reference: PubChem BioAssay AID1117319 (Southern Research Institute, 2015)
